# Data as given in PubChem BioAssay AID1224833 (University of Georgia, 2016)
# Test: 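Human genes whose knock-down alters rotavirus replication in monkey cells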 (primary screen)
# Cells: monkey MA104 kidney cells
# Reagents: siRNA pool against human genes, 50 nM
# Time to read-out: 48 h knock-down before infection; read 24 h after infection
# Challenge: infection with rotavirus strain RV3 two days after transfection; infectious dose for this stage not given
# Read-out: 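Rotavirus antigen per well by fluorescent immunoassay, normalised to non-targeting control wells on each plate and given as a standard z-score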
# Scale: z-score vs non-targeting control: higher = more rotavirus replication than with non-targeting control
# Rule for the call: In these data the active calls have z-score vs non-targeting control at about -1 or lower, or at about 1 or higher
# Calls: active = z-score beyond 1 either way; inactive = z-score within 1 of zero
# The whole screen tested about 12,000 reagents; shown is a part drawn at random. Over the whole deposit, about 5,600 (46%) were called active. 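Active calls cover z-scores past 1 in both directions, so they include lowered as well as raised rotavirus replication.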
gene knocked down,z-score vs non-targeting control,Call
TUBD1,-2.33,active
JPT2,0.577,inactive
TEX12,-0.469,inactive
SLC35B3,-0.306,inactive
MAD1L1,1.3,active
CIMIP1,2.96,active
NPDC1,0.0188,inactive
PRSS38,2.34,active
WDR89,0.324,inactive
OPRM1,-0.893,inactive
LSM14B,-0.542,inactive
SNRPE,-1.03,active
MAEA,-0.265,inactive
AP4M1,-1.85,active
S100Z,-1.35,active
KBTBD2,-0.711,inactive
CCL24,0.329,inactive
KRT6C,-1.95,active
SLC25A31,-1.5,active
TGFBI,-4.79,active
EFCAB12,1.03,active
DHRS2,-0.851,inactive
FGL2,-0.966,inactive
KPNA6,-1,active
DNAJB3P,-1.21,active
KRTAP4-5,-1.74,active
GALNT5,-2.57,active
CAVIN1,-2.15,active
BAALC,-2.71,active
ZNF155,0.0272,inactive
TMEM106C,1.13,active
TMC4,-0.347,inactive
SNHG32,-0.815,inactive
KRT71,-2.98,active
LIAS,-0.667,inactive
TAS1R1,0.31,inactive
SGPL1,0.715,inactive
SOS1,2.5,active
ARL6IP4,0.117,inactive
CA4,-1.93,active
IMP3,-1.19,active
FCHO1,-0.0678,inactive
RAB31,-1.75,active
ARRDC4,0.352,inactive
RAPGEF4,-1.96,active
STX4,1.28,active
CHIA,-1.89,active
MYO16,-1.27,active
ENHO,0.619,inactive
SLC39A12,1.36,active
P2RY6,1.41,active
SPMIP6,0.242,inactive
TIPE2,-0.749,inactive
JOSD1,0.595,inactive
CFAP157,0.51,inactive
KLHL31,1.61,active
CNIH3,-0.488,inactive
ANTKMT,1.57,active
NKX2-3,0.925,inactive
ZNG1F,-1.16,active
DOK2,-0.837,inactive
GNLY,-0.546,inactive
KIF3C,1.68,active
PARD6B,0.996,inactive
SLC6A18,-1.08,active
HAVCR2,0.739,inactive
SGO1,1.48,active
ERMN,-0.643,inactive
ADCY7,-0.627,inactive
RASD2,-0.417,inactive
EPHX2,3.85,active
PYCR1,0.527,inactive
SUPT16H,-3.31,active
SHKBP1,1.17,active
GCN1,-3.13,active
GADD45A,0.734,inactive
DNAJB4,-2.34,active
MLX,-1.3,active
KIF3A,-0.532,inactive
AP5Z1,0.446,inactive
TMEM87B,-1.32,active
PRR16,-1.27,active
CD59,0.4,inactive
PRMT9,-1.51,active
CHERP,0.719,inactive
HSP90B1,-0.597,inactive
TMOD1,-1.46,active
TRAM1,-0.996,inactive
CCDC80,-0.941,inactive
RSL24D1,-0.474,inactive
TMEM248,1.7,active
GMEB2,-0.846,inactive
GTPBP8,-1.5,active
ORC4,-0.405,inactive
ATG12,-1.05,active
NUDT6,0.526,inactive
DBNDD2,-2.66,active
ADPRHL1,-0.531,inactive
FAM133A,-0.669,inactive
CLEC4C,-0.187,inactive
RBM12,-0.435,inactive
PRG4,0.856,inactive
OR4Q3,-1.56,active
NFATC1,-2.8,active
TPRN,0.613,inactive
PSMC3IP,-1.68,active
LSS,-1.52,active
COCH,-0.784,inactive
UCP3,-1.19,active
RIN3,-0.925,inactive

Quoted from the listing (16 entries):
gene knocked down,z-score vs non-targeting control,Call
MAD1L1,1.3,active
CIMIP1,2.96,active
NPDC1,0.0188,inactive
PRSS38,2.34,active
WDR89,0.324,inactive
OPRM1,-0.893,inactive
LSM14B,-0.542,inactive
SNRPE,-1.03,active
MAEA,-0.265,inactive
AP4M1,-1.85,active
S100Z,-1.35,active
KBTBD2,-0.711,inactive
CCL24,0.329,inactive
KRT6C,-1.95,active
SLC25A31,-1.5,active
TGFBI,-4.79,active
